Test system: M. marinum MmTrpA^G65S
Conditions: MmTrpA^G65S strain, 5 d treatment

N#C[C@@H]1N[C@@H](CO)[C@H]1c1ccc(-c2ccccc2F)cc1 [BRD4592, (2R,3S,4R)-3-(2′-fluoro-[1,1′-biphenyl]-4-yl)-4-(hydroxymethyl)azetidine-2-carbonitrile]
effect of treatment on resistant mutant in zebrafish: not affected

Reference: publication PMC6886523 (Nature chemical biology, 2017)
